Results of unrelated studies side by side (data: NIAID ChemDB).

All rows: host cell toxicity; cell line: MT-4; measure: CC50

CCn: concentration that lowers growth or viability of the cells by n%.

| structure | method | value |
|---|---|---|
| C=CCN1C(=O)c2cccn2S(=O)(=O)c2ccccc21 |  | 150 µM |
| CC/C=C/C=C/C=C\C(=O)O[C@@H]1[C@@H](C)[C@]2(O)[C@@H]3C=C(C)C(=O)[C@@H]3CC(CO)=C[C@H]2[C@@H]2C(C)(C)[C@]12OC(=O)CCC | MTT | 5.7 µM |
| Cc1nc(CCCCCCC(O)c2ccccc2)n2nc(-n3ccnc3)ccc12 |  | 26 µM |
| CCc1c(CCC2CCCCC2)nc(SCC(=O)c2ccccc2)[nH]c1=O | MTT | 241 µM |
| Cc1nc(CCCCCCC(=O)c2ccccc2)n2nc(-n3cncc3C)ccc12 |  | 26 µM |
| CCC(C)Oc1cc(N)nc(Sc2cccc(Cl)c2)n1 |  | 188 µM |
| CCOC(=O)CN1C(=O)c2cccn2S(=O)(=O)c2ccccc21 |  | >300 µM |
| Cc1nc(CCCCCCCC(=O)c2ccccc2)n2nc(Cl)ccc12 |  | 250 µM |
| C(CCC1CNCCNCCCNCCNC1)CCC1CNCCNCCCNCCNC1 |  | 140 µM |
| CC(C)=CCc1c(-c2ccc(O)cc2O)oc2c([C@H]3C=C(C)C[C@@H](c4ccc(O)cc4O)[C@@H]3C(=O)c3ccc(O)cc3O)c(O)cc(O)c2c1=O |  | 66 µg/mL |
| CCc1c(C(C)C2CCCCC2)nc(SCC(=O)c2ccccc2)[nH]c1=O | MTT | 194 µM |
| Cc1nc(CCCCCCC(=O)c2ccccc2)n2nc(-n3nccn3)ccc12 |  | 260 µM |
| CCNC(=O)[C@@H](NS(=O)(=O)Cc1ccccc1)[C@@H]1N[C@@H](C(=O)NCCNC(=O)[C@@H]2N[C@@H]([C@H](NS(=O)(=O)Cc3ccccc3)C(=O)NCC)SC2(C)C)C(C)(C)S1 |  | >100 µM |
| CC(C)=CCc1c(O)cc(O)c2c(=O)c(OC3O[C@@H](C)[C@H](O)[C@@H](O)[C@H]3O[C@@H]3O[C@H](CO)[C@@H](O)[C@H](O)[C@H]3O)c(-c3ccc(O)cc3)oc12 |  | >500 µg/mL |
| Cc1cc(C#N)cc(C)c1Oc1ccc(N)c(NC2CCN(Cc3ccc(S(C)(=O)=O)cc3)CC2)n1 | MTT | 28 µM |
| Cc1cc(C#Cc2cccnc2)cc(C)c1Oc1ccnc(Nc2ccc(C#N)cc2)n1 | MTT | 3.476 µM |
| Cc1cc(C#N)cc(C)c1Oc1ccc(N)c(NC2CCN(Cc3ccc(S(N)(=O)=O)cc3)CC2)n1 | MTT | 24 µM |
| C1CNCCNCC(CCCC2CNCCNCCCNCCNC2)CNCCNC1 |  | 230 µM |
| COc1c(CC=C(C)C)c(O)cc2c1C[C@H](c1ccc(O)cc1O)CO2 |  | 34 µg/mL |
| CC(C)=CCN1Cc2cc(Cl)cc3[nH]c(=S)n(c23)C[C@H]1C |  | 19 µM |
| O=S1(=O)c2ccccc2NC(CO)c2cccn21 |  | 200 µM |
| Cc1cc(C)c(Nc2nc(NC3CCN(Cc4ccccc4C)CC3)nc3nc[nH]c23)c(C)c1 | MTT | 7.81 µM |
| CCC(C)Oc1cc(=O)[nH]c(S(=O)(=O)c2ccccc2)n1 |  | 109 µM |
| Cc1cc(C)c(Nc2ccc([N+](=O)[O-])c(NC3CCN(Cc4ccc(S(N)(=O)=O)cc4)CC3)n2)c(C)c1 | MTT | 14 µM |
| CCCCSc1cc(N)nc(Nc2cccc3ccccc23)n1 |  | 100 µM |
| CC1CCN(CCCN2c3ccccc3NC(c3ccccc3)c3cccn32)CC1 |  | 47 µM |
| Cc1cc(C#Cc2cccc(N)c2)cc(C)c1Oc1ccnc(Nc2ccc(C#N)cc2)n1 | MTT | 5.005 µM |
| CC1(C)S[C@H]([C@H](NC(=O)Cc2ccccc2)C(=O)NCC(F)(F)F)N[C@H]1C(=O)NCCNC(=O)[C@@H]1N[C@@H]([C@H](NC(=O)Cc2ccccc2)C(=O)NCC(F)(F)F)SC1(C)C |  | >100 µM |
| CCOC(=O)C1c2cccn2S(=O)(=O)c2ccccc2N1C(=O)CBr |  | 10 µM |
| Cc1nc(CCCCCCC(=O)c2ccccc2)n2nc(N)ccc12 |  | 30 µM |
| CC(C)Nc1cccnc1N1CCN(C(=O)c2cc3cc(NS(C)(=O)=O)ccc3[nH]2)CC1 | MTT | >20 µM |
| CCC(C)Oc1cc(N)nc(Sc2ccc(OC)cc2)n1 |  | 300 µM |
| Cc1ccnc2c1NC(=O)c1cccnc1N2C1CC1 | MTT | >15.02 µM |
| C1CNCCCNCCCNC1 |  | 85 µM |
| C[C@H]1CN(CCC2CC2)Cc2cc(Cl)cc3[nH]c(=S)n1c23 |  | >810 µM |
| CC1CCN(CCCN2c3ccccc3NCc3cccn32)CC1 |  | 62 µM |
| CCNC(=O)[C@@H](NC(=O)Cc1ccccc1)[C@@H]1N[C@@H](C(=O)NCCNC(=O)[C@@H]2NC(CNC(=O)Cc3ccccc3)SC2(C)C)C(C)(C)S1 |  | >100 µM |
| Cc1cn([C@H]2C=C[C@@H](CO)O2)c(=O)[nH]c1=O | trypan blue | 73 µM |
| CC1(C)C=Cc2c(ccc(-c3coc4cc(O)ccc4c3=O)c2O)O1 |  | 40 µg/mL |
| Cc1cc(C)c(Nc2ccc([N+](=O)[O-])c(NC3CCN(Cc4ccncc4)CC3)n2)c(C)c1 | MTT | 31 µM |
| Cc1cn([C@H]2C=C[C@@H](CO)O2)c(=O)[nH]c1=O | MTT | >100 µM |
| CC(C)=CCN1Cc2cccc3[nH]c(=O)n(c23)C[C@@H]1C |  | 470 µM |
| Cc1cn([C@H]2C[C@H](N=[N+]=[N-])[C@@H](CO)O2)c(=O)[nH]c1=O |  | >20 µM |
| Nc1ncnc2nnn(CCOCP(=O)(O)O)c12 |  | >365 µM |
| Cc1cn([C@H]2C[C@@H](N=[N+]=[N-])[C@@H](CO)O2)c(=O)[nH]c1=O | MTT | >93 µM |
| Cc1cc(C#Cc2cccc(N)c2)cc(C)c1Oc1ccnc(NC2CCN(Cc3ccc(C#N)cc3)CC2)n1 | MTT | 0.261 µM |
| C1CNCCNCCNCCN1 |  | 20 µM |
| Nc1ncnc2c1nnn2CCOCP(=O)(O)O |  | >366 µM |
| Cc1cn([C@H]2C[C@H](N=[N+]=[N-])[C@@H](CO)O2)c(=O)[nH]c1=O | MTT | >1 µM |
| C=CCN1Cc2cccc3[nH]c(=O)n(c23)C[C@@H]1C |  | 680 µM |
| Cc1cc(C)c(Nc2nc(NC3CCN(Cc4cccc(C#N)c4)CC3)nc3nc[nH]c23)c(C)c1 | MTT | 25.4 µM |
| C=C1[C@H](CO)[C@@H](O)C[C@@H]1n1cnc2c(=O)[nH]c(N)nc21 | MTT | 28 µM |
| CCC(=CCN1Cc2c(Cl)ccc3[nH]c(=S)n(c23)C[C@@H]1C)CC |  | 12 µM |
| O=C(NCC#Cc1cn([C@H]2C=C[C@@H](CO)O2)c(=O)[nH]c1=O)C(F)(F)F | MTT | 37 µM |
| Cc1cc(C#Cc2cccc(N)c2)cc(C)c1Oc1ccnc(NC2CCN(Cc3ccc(S(N)(=O)=O)cc3)CC2)n1 | MTT | 0.732 µM |
| CCOC(=O)C1c2cccn2Sc2ccccc2N1C(=O)CCl |  | >300 µM |
| CC1(C)S[C@H]([C@H](NC(=O)Cc2ccccc2)C(=O)NCc2ccccc2)N[C@H]1C(=O)NCCNC(=O)[C@@H]1N[C@@H]([C@H](NC(=O)Cc2ccccc2)C(=O)NCc2ccccc2)SC1(C)C |  | >100 µM |
| CCC(=CCN1Cc2cc(C)cc3[nH]c(=O)n(c23)CC1C)CC |  | 20 µM |
| Cc1cc(C)c(Nc2nc(NC3CCN(Cc4ccncc4)CC3)nc3nc[nH]c23)c(C)c1 | MTT | 141 µM |
| CCOP(=O)(O)COCCn1nnc2c(N)ncnc21 |  | >331 µM |
| CC(C)=CCN1[C@H](C)c2cccc3[nH]c(=S)n(c23)C[C@@H]1C |  | 74 µM |
| O=c1[nH]c(=O)n([C@H]2C=C[C@@H](CO)O2)cc1C#CCCCO | MTT | 71 µM |
| O=c1ccn(/C=C/[C@H](O)[C@H](O)CO)c(=O)[nH]1 |  | 500 µM |
| Cc1cc(C#N)cc(C)c1Oc1ccc([N+](=O)[O-])c(NC2CCN(Cc3ccncc3)CC2)n1 | MTT | 26 µM |
| Cc1cc(C)c(Nc2nc(NC3CCN(Cc4ccc(C(N)=O)cc4)CC3)nc3nc[nH]c23)c(C)c1 | MTT | 23.85 µM |
| CCc1c(C(C)CC2CCCCC2)nc(SCC(=O)c2ccccc2)[nH]c1=O | MTT | 32 µM |
| Cc1cc(C)c(Nc2nc(NC3CCN(Cc4cccnc4)CC3)nc3nc[nH]c23)c(C)c1 | MTT | 132 µM |
| Nc1ncnc2c1ncn2CCOCP(=O)(O)O |  | 229 µM |
| Cc1cc(C#N)cc(C)c1Oc1nc(Nc2ccc(C#N)cc2)nc(N)c1Br | MTT | 2.2 µM |
| CCC(C)Oc1cc(N)nc(S(=O)(=O)c2cc(C)cc(C)c2)n1 |  | 70 µM |
| O=c1[nH]cnc2c1ncn2[C@H]1CC[C@@H](CO)O1 |  | 1000 µM |
| Cc1nc(CCCCCCC(=O)c2ccccc2)n2nc(-n3cccn3)ccc12 |  | 26 µM |

An empty or dashed field is not shown. Rows are shuffled and stem from different studies.